Compound potency records, mixed from different reports. Data source: NIAID ChemDB in PubChem.

Shared fields: tests in culture

MIC50, MIC90 and the like: level of inhibition, or share of isolates inhibited. ECn: concentration that inhibits the pathogen or its effect by n%. Percent inhibition refers to the dose given; in toxicity tests it is the harm to the cells. Conditions beyond the fields shown may differ between rows. a–b is a range or a potency band. Zone: diameter of growth inhibition.

NC[C@@H]1O[C@H](O[C@H]2[C@@H](O)[C@H](O[C@@H]3[C@@H](O)[C@H](N)C[C@H](N)[C@H]3O[C@H]3O[C@H](CO)[C@@H](O)[C@H](O)[C@H]3N)O[C@@H]2CO)[C@H](N)[C@@H](O)[C@@H]1O ; agent: Cryptosporidium parvum ; endpoint: inhibition ; tested at: 50 µM ; result: 19%
CC(C)CNC(=S)Nc1ccc2c(c1)Cc1cc(Br)ccc1-2 ; agent: Hepatitis C virus ; cell line: Ava5-EG(delta4AB)SEAP ; method: reporter gene / fluorescence ; endpoint: EC50 ; result: 0.001–1 µM
Oc1ccccc1C=Nc1ccccc1O ; agent: Cryptococcus neoformans ; strain or isolate: WP ; endpoint: MIC99 ; result: 5.7 µg/mL
O=c1[nH]c(=O)n([C@@H]2O[C@H](CO)[C@@H](O)[C@@H]2O)cc1/C=C/Cl ; agent: Varicella zoster virus ; strain or isolate: Ohtomo ; cell line: HELF ; method: plaque count ; endpoint: inhibition ; tested at: 0.001 µg/mL ; result: 100%
Nc1ncnc2c1ncn2[C@@H]1CC[C@@H](O)[C@H]1O ; agent: Measles virus ; strain or isolate: Halonen ; cell line: CV-1 ; method: cytopathic effect ; endpoint: EC50 ; result: <0.1 µg/mL
Cc1ccc2c(c1)C(C=NNC(=O)N1c3ccccc3C=Cc3ccccc31)C(c1ccccc1)=N2 ; agent: Aspergillus oryzae ; strain or isolate: MTCC-3567 ; method: agar diffusion ; endpoint: zone ; tested at: 500 µg/mL ; result: 12 mm
NC(=S)Nc1cccc(OCCCCOc2cccc3ccccc23)c1 ; agent: Hepatitis C virus ; cell line: Ava5-EG(delta4AB)SEAP ; method: reporter gene / fluorescence ; endpoint: EC50 ; result: 0.001–1 µM
Cc1nc(NCCCCNc2ccnc3cc(Cl)ccc23)nc(-c2ccccc2[N+](=O)[O-])c1C(=O)OC(C)C ; agent: Cryptococcus gattii ; strain or isolate: 1913 ER ; endpoint: MIC99 ; result: 8 µg/mL
Nc1ccc(S(=O)(=O)O)cc1 ; agent: Herpes simplex virus ; cell line: Human amnion AV3 cells ; method: cytopathic effect ; endpoint: inhibition ; tested at: 5 µg/mL ; result: 40%
S=C1NCCN1C(=S)Nc1cccc(OCCCCCc2ccccc2)c1 ; agent: Hepatitis C virus ; cell line: Ava5-EG(delta4AB)SEAP ; method: reporter gene / fluorescence ; endpoint: EC50 ; result: 0.001–1 µM
CN(NC(=O)Nc1cc(C(F)(F)F)cc(C(F)(F)F)c1)C(=O)Nc1cc(C(F)(F)F)cc(C(F)(F)F)c1 ; agent: Escherichia coli ; strain or isolate: ES142 ; endpoint: MIC ; result: >300 µM
CC(C)Nc1nc2cc(Cl)c(Cl)cc2n1[C@H]1O[C@@H](CO)[C@H](O)[C@@H]1O ; agent: Human cytomegalovirus ; strain or isolate: XBAF.4 (alaalacysarg593DEL) ; cell line: MRC-5 ; method: hybridisation ; endpoint: EC50 ; result: 0.03 µM
O=c1[nH]c(=O)n([C@@H]2O[C@H](CO)[C@@H](O)[C@@H]2O)cc1/C=C/Br ; agent: Varicella zoster virus ; strain or isolate: Kawaguchi ; cell line: HELF ; method: plaque count ; endpoint: inhibition ; tested at: 0.001 µg/mL ; result: 100%
COc1c2c(c(O)c3ccccc13)C(=O)c1cnn(C)c1C2=O ; agent: Cryptosporidium parvum ; endpoint: inhibition ; tested at: 25 µM ; result: 86%
O=S(=O)([O-])c1cc(S(=O)(=O)[O-])c2cc(NS(=O)(=O)c3ccccc3)ccc2c1 ; agent: Herpes simplex virus ; cell line: Human conjunctiva cells ; method: cytopathic effect ; endpoint: inhibition ; tested at: 10 µg/mL ; result: 0%
O=C(NCCO)NNC(=O)Nc1cc(C(F)(F)F)cc(C(F)(F)F)c1 ; agent: Escherichia coli ; strain or isolate: ES142 ; endpoint: MIC ; result: >300 µM
CCOC(=O)c1cnc(NCCCCNc2ccnc3cc(Cl)ccc23)nc1C ; agent: Cryptococcus gattii ; strain or isolate: LMM 818 ; endpoint: MIC99 ; result: 11.3 µg/mL
CCn1ncc2c1C(=O)c1c(O)ccc(O)c1C2=O ; agent: Cryptosporidium parvum ; endpoint: EC50 ; result: >100 µM
O=C(CCC(=O)Nc1cc(C(F)(F)F)cc(C(F)(F)F)c1)Nc1cc(C(F)(F)F)cc(C(F)(F)F)c1 ; agent: Escherichia coli ; strain or isolate: ES142 ; endpoint: MIC ; result: >300 µM
S=C(Nc1cccc(OCc2ccccc2)c1)N1CCN(CCCc2ccccc2)C1=S ; agent: Hepatitis C virus ; cell line: Ava5-EG(delta4AB)SEAP ; method: reporter gene / fluorescence ; endpoint: EC50 ; result: 0.001–1 µM
COc1ccc2oc(=S)n(-c3ccc(Cl)c(Cl)c3)c(=S)c2c1 ; agent: Mycobacterium kansasii ; strain or isolate: 6509/96 ; conditions: 21 d ; endpoint: MIC ; result: 32 µM
Nc1c(S(=O)(=O)[O-])cc2cc(S(=O)(=O)[O-])ccc2c1O ; agent: Adenovirus ; strain or isolate: TYPE 3 ; cell line: Human amnion AV3 cells ; method: cytopathic effect ; endpoint: inhibition ; tested at: 50 µg/mL ; result: 40%
CCC(CC)O[C@@H]1C=C(C(=O)O)C[C@H](N)[C@H]1NC(C)=O ; agent: Influenza A virus ; strain or isolate: H1N1 isolate C23C ; cell line: MDCK ; method: plaque count ; endpoint: EC50 ; result: ≤0.045 µg/mL
CC(=O)N[C@H]1[C@H]([C@H](O)[C@H](O)CO)OC(C(=O)O)=C[C@@H]1N=C(N)N ; agent: Influenza A virus ; strain or isolate: H1N1 A/PR/8/34 ; cell line: MDCK ; endpoint: EC50 ; result: 0.42 µM
O=C(c1ccc(Br)c(Cl)c1)N1CCn2c(c3n(c2=O)C[C@H](F)CN(Cc2ccccc2)C3=O)C1 ; agent: Hepatitis B virus ; cell line: HepG2.117 ; method: PCR ; endpoint: EC50 ; result: 0.1–0.5 µM
CO[C@H]1/C=C/O[C@@]2(C)Oc3c(C)c(O)c4c(O)c(c(/C=N/N5CCN(C6CCCC6)CC5)c(O)c4c3C2=O)NC(=O)/C(C)=C\C=C\[C@H](C)[C@H](O)[C@@H](C)[C@@H](O)[C@@H](C)[C@H](OC(C)=O)[C@@H]1C ; agent: Mycobacterium avium intracellulare ; strain or isolate: 953 ; endpoint: MIC ; result: 2 µg/mL
Nc1ncnc2c1ncn2[C@H]1C[C@@H](S)[C@H](O)[C@@H]1O ; agent: Measles virus ; cell line: CV-1 ; method: cytopathic effect ; endpoint: EC50 ; result: >100 µg/mL
CC(=O)Oc1cccc2c1C(=O)c1c(cnn1C)C2=O ; agent: Cryptosporidium parvum ; endpoint: inhibition ; tested at: 50 µM ; result: 100%
Nc1ccc2cc([N+](=O)[O-])cc(S(=O)(=O)[O-])c2c1 ; agent: Adenovirus ; strain or isolate: TYPE 3 ; cell line: Human amnion AV3 cells ; method: cytopathic effect ; endpoint: inhibition ; tested at: 10 µg/mL ; result: 0%
Cn1cc(C(=O)NCc2ccc(Cl)cc2)c(=O)c2cc(CN3CCOCC3)ccc21 ; agent: Varicella zoster virus ; strain or isolate: Human zoster isolate ; cell line: HFF ; method: plaque count ; endpoint: EC50 ; result: 0.5 µM
CCn1nc(C)c2c1C(=O)c1ccccc1C2=O ; agent: Cryptosporidium parvum ; endpoint: inhibition ; tested at: 25 µM ; result: <10%
O=C(Nc1ccc2cc(S(=O)(=O)[O-])cc(S(=O)(=O)[O-])c2c1)c1ccccc1 ; agent: Adenovirus ; strain or isolate: TYPE 3 ; cell line: Human amnion AV3 cells ; method: cytopathic effect ; endpoint: inhibition ; tested at: 5 µg/mL ; result: 0%
Nc1nc2c(ncn2COC(CO)CO)c(=O)[nH]1 ; agent: Cytomegalovirus ; strain or isolate: AD169 ; cell line: HFF ; method: hybridisation ; endpoint: inhibition ; tested at: 3 µM ; result: 53%
Oc1ccccc1N=Cc1ccc2c(c1)OCO2 ; agent: Cryptococcus neoformans ; strain or isolate: ATCC 28957 ; method: broth dilution ; endpoint: MIC ; result: 5.7 µg/mL
Cc1cn([C@@H]2O[C@H](CO)[C@@H](O)[C@@H]2O)c(=O)[nH]c1=O ; agent: Varicella zoster virus ; strain or isolate: Asahikawa ; cell line: HELF ; method: plaque count ; endpoint: inhibition ; tested at: 0.01 µg/mL ; result: 0%
C=C/C(C)=C/[C@@]1(C)SC(=O)C(C)=C1O ; agent: Escherichia coli ; strain or isolate: UB1005/PJTB3 ; endpoint: MIC ; result: >600 µM
CN[C@H]1CC[C@@H](c2ccc(Cl)c(Cl)c2)c2ccccc21 ; agent: Cryptococcus neoformans ; strain or isolate: XL1495 ; method: broth dilution ; endpoint: MFC ; result: 8 µg/mL
O=c1[nH]c(=O)n([C@H]2C[C@H](O)[C@@H](CO)O2)cc1I ; agent: Varicella zoster virus ; strain or isolate: HIRAI ; cell line: HELF ; method: plaque count ; endpoint: inhibition ; tested at: 1 µg/mL ; result: 62%
CCC(CC)O[C@@H]1C=C(C(=O)O)C[C@H](N)[C@H]1NC(C)=O ; agent: Influenza A virus ; strain or isolate: H1N1 A/NWS/33 ; cell line: MDCK ; method: visual reading ; endpoint: EC50 ; result: 57 µM
CCCC(CCC)C(NC(C)=O)C1CC(C(=O)O)CC1N=C(N)N ; agent: Influenza A virus ; strain or isolate: Influenza A/Virginia/2/88R (H3N2) ; cell line: MDCK ; endpoint: EC50 ; result: 0.05 µM
Nc1nc2c(ncn2C=C2CC2CO)c(=O)[nH]1 ; agent: Human cytomegalovirus ; strain or isolate: VR4990 (ganciclovir-resistant) ; method: plaque count ; endpoint: EC50 ; result: 1.5 µM
O=c1oc2ccc(Br)cc2c(=S)n1-c1cccc(F)c1 ; agent: Mycobacterium kansasii ; strain or isolate: My 235/80 ; conditions: 14 d ; endpoint: MIC ; result: 8 µM
CCCCCCCCCCCCOC(=O)[C@]1(O)C[C@@H](O)[C@@H](O)[C@H](OC(=O)/C=C/c2ccc(O)c(O)c2)C1 ; agent: Aspergillus parasiticus ; strain or isolate: Speare UMIP 1142.76 ; endpoint: MIC ; result: 750 µg/mL
CCCCCCCCCCCCCCCCCCCCCCOCC(C)(COCCCCCCCCCCCCCCCCCCCCCC)CO[C@]1(C(=O)O)C[C@H](OS(=O)(=O)O)[C@@H](NC(C)=O)[C@H]([C@H](OS(=O)(=O)O)[C@@H](COS(=O)(=O)O)OS(=O)(=O)O)O1 ; agent: Rotavirus ; strain or isolate: WA (serotype 1) ; cell line: MA-104 ; endpoint: EC50 ; result: 0.82 µg/mL
Nc1ncnc2c1ncn2[C@@H]1C=C[C@@H](O)[C@H]1O ; agent: Measles virus ; cell line: CV-1 ; method: neutral red ; endpoint: EC50 ; result: 1 µg/mL
COc1ccc2oc(=O)n(-c3cccc(F)c3)c(=S)c2c1 ; agent: Mycobacterium kansasii ; strain or isolate: My 235/80 ; conditions: 21 d ; endpoint: MIC ; result: 32 µM
O=C(NN=CC1C(c2ccccc2)=Nc2ccccc21)N1c2ccccc2C=Cc2ccccc21 ; agent: Aspergillus oryzae ; strain or isolate: MTCC-3567 ; method: agar diffusion ; endpoint: zone ; tested at: 1000 µg/mL ; result: 13 mm
Oc1cccc(C=Nc2ccccc2O)c1 ; agent: Cryptococcus gattii ; strain or isolate: ATCC 24065 ; endpoint: MIC99 ; result: 5.7 µg/mL
CCc1nc2ccccc2c(=O)n1NC(=O)Nc1cc(C(F)(F)F)cc(C(F)(F)F)c1 ; agent: Escherichia coli ; strain or isolate: ES142 ; endpoint: MIC ; result: >300 µM
C[C@H](NC(=O)c1c2n(c(=O)n1-c1ccc(-n3cccn3)cc1)CCN(C(=O)c1ccc(Br)c(Cl)c1)C2)c1ccccc1F ; agent: Hepatitis B virus ; cell line: HepG2.117 ; method: PCR ; endpoint: EC50 ; result: 0.5–5 µM
Nc1nc2c(ncn2COC(CO)CO)c(=O)[nH]1 ; agent: Human cytomegalovirus ; strain or isolate: C8301 ; cell line: MRC-5 ; method: hybridisation ; endpoint: EC50 ; result: 0.25 µM
Cc1ccc2oc(=O)n(-c3ccc(F)cc3)c(=S)c2c1 ; agent: Mycobacterium kansasii ; strain or isolate: 6509/96 ; conditions: 14 d ; endpoint: MIC ; result: 8 µM
O=S(=O)([O-])c1ccc2c(O)cc(S(=O)(=O)[O-])cc2c1 ; agent: Adenovirus ; strain or isolate: TYPE 3 ; cell line: Human amnion AV3 cells ; method: cytopathic effect ; endpoint: inhibition ; tested at: 50 µg/mL ; result: 0%
CCCNC(=S)Nc1cccc(OCCCCCc2ccccc2)c1 ; agent: Hepatitis C virus ; cell line: Ava5-EG(delta4AB)SEAP ; method: reporter gene / fluorescence ; endpoint: EC50 ; result: 0.001–1 µM
CCc1cn([C@@H]2O[C@H](CO)[C@@H](O)[C@@H]2O)c(=O)[nH]c1=O ; agent: Varicella zoster virus ; strain or isolate: Kawaguchi ; cell line: HELF ; method: plaque count ; endpoint: inhibition ; tested at: 1000 µg/mL ; result: 86%
COc1ccc(-n2c(C(=O)NCc3ccccc3)c3n(c2=O)CCN(C(=O)c2ccc(Br)c(Cl)c2)C3)cc1 ; agent: Hepatitis B virus ; cell line: HepG2.117 ; method: PCR ; endpoint: EC50 ; result: 0.1–0.5 µM
CCOC(=O)c1c(C)nc(NCCCNc2ccnc3cc(Cl)ccc23)nc1-c1ccccc1 ; agent: Cryptococcus neoformans ; strain or isolate: WP ; endpoint: MIC99 ; result: 5.7 µg/mL
CCCC(CCC)C(NC(C)=O)C1C(N=C(N)N)CC(C(=O)O)C1O ; agent: Influenza A virus ; strain or isolate: H1N1 A/TEXAS/36/91 ; cell line: MDCK ; endpoint: EC50 ; result: 0.06 µM
C=CCc1ccc(OC)c(OC)c1 ; agent: Candida albicans ; strain or isolate: 3043 ; method: turbidity ; endpoint: MIC90 ; result: 350 µg/mL
O=C(NN=CC1C(c2ccccc2)=Nc2ccc(Cl)cc21)N1c2ccccc2C=Cc2ccccc21 ; agent: Aspergillus oryzae ; strain or isolate: MTCC-3567 ; method: agar diffusion ; endpoint: zone ; tested at: 500 µg/mL ; result: 11 mm
Nc1ncnc2c1ncn2[C@@H]1C[C@H](N)[C@@H](O)[C@H]1O ; agent: Measles virus ; strain or isolate: X-1108 ; cell line: CV-1 ; method: neutral red ; endpoint: EC50 ; result: 15 µg/mL
CC(C)Oc1ccc(-n2c(C(=O)NCc3ccc(S(C)(=O)=O)cc3)c3n(c2=O)CCN(C(=O)c2ccc(Br)c(Cl)c2)C3)cc1 ; agent: Hepatitis B virus ; cell line: HepG2.117 ; method: PCR ; endpoint: EC50 ; result: 0.5–5 µM